Two molecules from patent US20240417446A1 (US Dept. of Health and Human Services, published 2024) can be followed below.

In general, Kd refers to the concentration at which binding is half-saturated. A high value points to a looser complex.

This assay concerns the target SARS-CoV-2 S2 subunit of the spike protein (Sino Biological, 40590-V08B) (SARS-CoV-2, UniProt P0DTC2 686-1213). In words: Octet (BLI), S2 antigen on streptavidin sensor tips, nanobody in solution. (In general: BLI is a label-free optical method that tracks binding on a fibre tip over time.)

B1: NCI-CoV-S2A9 (VNAR)
VNAR: ARVDQTPRSVTKETGESLTINCVLRDASYALGRTCWYRKKSGSTNEESISKGGRYVETVNSGSKSFSLRINDLTVEDGGTYRCGVSTPWSCDYGPLCFYAACGDGTVVTVN
Turning to B1, binding was characterised by a dissociation constant (Kd) of 2.23 nM.

B2: NCI-CoV-CG2G2 (VHH)
VHH: AVQLVESGGGSVPPGGSLTLSCTVSDNIFRTYAVGWFRQAPEKRCQWIATLNADESTEYNVAVTGRFTISRDNSGRSVYLQMDNLNSEDTAIYYCASLARKWSCHDSWGRGTQVTVSS
As for B2, the Kd was 4.86 nM.
